Measurements from “University of Dundee, Small-Polar-MMV Screening Library” (2021), ChEMBL document CHEMBL3988442.

Values are the deposited “Percent Effect”, in %. The controls that fix the scale are not given in the record; negative values are as filed. This is part of a subset picked to be rich in strong results. A dash means the value is not listed here; it may have been measured.

A: 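Phenotypic screen: M. tuberculosis growth, glucose 7H9 medium, 3 days; the read-out is not stated. Compounds at 500 µM. The record gives no direction; compounds that gave an IC50 in retests scored well above the rest, so higher reads as more growth inhibition. Of about 18,000 compounds tested this way, about 1,400 (7.9%) reached 50% or more in at least one test.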
B: 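Whole-cell growth test on Mycobacterium tuberculosis, read after 4 days in a medium based on cholesterol and the lipid DPPC; the read-out is not stated. Concentration: 500 µM. The record gives no direction; compounds that gave an IC50 in retests scored well above the rest, so higher reads as more growth inhibition. Of about 18,000 compounds tested this way, about 900 (5%) reached 50% or more in at least one test.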

| SMILES | A | B |
|---|---|---|
| `CCS(=O)(=O)N1CC(C(=O)N(C)C)Oc2ccccc21` (stereo unspecified) | - | 2.038% |
| `NCCOc1ccccc1OCCN` | 5.295% | - |
| `COc1c(F)cc(C(=O)NC2CCNC2)cc1F` (stereo unspecified) | - | -3.914% |
| `CC(Cn1cccn1)C(=O)N(C)CCc1cnn(C)c1` (stereo unspecified) | -13.48% | - |
| `CCOCc1nnc(NCc2cccc(OC)n2)o1` | 28.72% | - |
| `NC(=O)Nc1ccc(CNC(=O)c2cccnc2)cc1` | 16.84% | - |
| `N[C@@H]1C[C@H]1c1ccccc1F` | 0.8473% | - |
| `COc1ccccc1CCNC(=O)CC1CCNC1` (stereo unspecified) | - | 14% |
| `N[C@H]1CN(S(=O)(=O)c2cccc(F)c2)C[C@@H]1C1CC1` | 24% | 10.69% |
| `Cc1cc(NC(=O)C(C)S(=O)(=O)c2ccccn2)no1` (stereo unspecified) | - | -18.25% |
| `Cc1cccc(Cn2c(CN)n[nH]c2=O)c1` | 23.76% | - |
| `Cc1ccc2c(c1)OC(C)C(=O)N2` (stereo unspecified) | 19.24% | 10.89% |
| `CC(C(N)=O)S(=O)(=O)c1ccc2ccccc2c1` (stereo unspecified) | 22.46% | -4.667% |
| `CN(C)C(=O)COC(=O)c1ccc2ccccc2n1` | 57.85% | - |
| `Cc1ccc(C(=O)N2CCN(C(C)C(N)=O)CC2)s1` (stereo unspecified) | 5.332% | - |
| `CN(CC(=O)NCC1CCCO1)CC1CC1` (stereo unspecified) | 31.99% | - |
| `CCOC(CC)CNC(=O)c1cnn(C(C)C)c1` (stereo unspecified) | 25.44% | - |
| `CCN(CCC#N)C(=O)CNc1cc(F)ccc1F` | 6.664% | - |
| `CCn1c(SCC(=O)NC)nc2ccccc2c1=O` | -0.3346% | -9.895% |
| `CCC(NC(=O)c1ccc(CO)o1)c1nc(C)c[nH]1` (stereo unspecified) | 2.842% | - |
| `CC(=O)N1CCN(C(=O)NCCCNS(C)(=O)=O)CC1` | -8.232% | - |
| `NC(=O)COc1cccc(NC(=O)CSC(F)(F)F)c1` | 25.37% | - |
| `N[C@H]1CCO[C@@H]1c1cccnc1` | -1.356% | - |
| `NC1CCn2cncc21` (stereo unspecified) | 1.26% | - |
| `CNC(=O)CCN1CCC(c2ccc(OC)cc2)CC1` | 16.37% | - |
| `COC(C(=O)NCc1ccncn1)c1ccccc1` (stereo unspecified) | 0.05608% | - |
| `Cc1ccsc1C(=O)NCc1ccnc(N(C)C)c1` | 42.41% | 34.4% |
| `NC(=O)C1CCN(c2ccnc3ccc(Cl)cc23)C1` (stereo unspecified) | -4.565% | - |
| `CCSc1nnc(-c2ccc[nH]2)o1` | 53.82% | 55.99% |
| `CC(NS(C)(=O)=O)c1nc(C2CC2)n[nH]1` (stereo unspecified) | 9.403% | - |
| `Cc1nnc(CN)s1` | -10.87% | - |
| `CC(C)(C)OC(=O)n1cc(N)cn1` | 8.137% | 7.343% |
| `NCC(=O)Nc1ccc(Cl)c(F)c1` | 73.15% | 68.45% |
| `N#Cc1ccsc1NC(=O)CN1CCn2ccnc2C1` | -1.103% | - |
| `CC(C)(CO)NC(=O)CCC(=O)c1cccs1` | 9.124% | - |
| `Nc1ncnn1-c1ccc(C(F)(F)F)cn1` | 14.45% | 17.5% |
| `Cc1nc(C(=O)Nc2cnn(C)c2)ccc1C#N` | - | -9.009% |
| `COC(=O)CSCC(=O)Nc1cc(F)cc(F)c1` | 65.44% | 53.44% |
| `CC1Oc2ccccc2C(=O)N(C)C1=O` (stereo unspecified) | 7.201% | - |
| `CC(CN(CCO)Cc1nccn1C)N1CCCC1` (stereo unspecified) | - | -38.89% |
| `N[C@@H]1C[C@H]1c1c(F)cccc1F` | 55.68% | - |
| `CCSC1CCCCN(CCCNC(C)=O)C1` (stereo unspecified) | 12.65% | - |
| `Nc1nnc(SCCc2ccccc2)[nH]1` | 28.68% | 26.88% |
| `CN(C(=O)C(N)CCS(C)(=O)=O)C1CCOCC1` (stereo unspecified) | - | 0.4131% |
| `Brc1ccc(N2CCNCC2)nc1` | 57.67% | - |
| `Cc1ccc(F)cc1C(=O)NCC1(O)CCNC1` (stereo unspecified) | - | -4.189% |
| `O=C(Nc1nncs1)NC1CCCC1` | - | 11.65% |
| `O=S(=O)(NCCNCc1sccc1Cl)c1cccnc1` | -0.6465% | - |
| `COc1ccc(Cl)c(N2CCNCC2)c1` | 45.6% | - |
| `CCN(CC)C(=O)NCC(O)c1ccsc1` (stereo unspecified) | 4.488% | - |
| `CC(C)[C@H](N)C(=O)N1CCc2c(F)cccc2C1` | - | 10.81% |
| `CC(C)n1cncc1CN1CCN(CCO)CC1` | -17.94% | - |
| `C[C@@H]1CN(C(=O)c2cn(CCN)nn2)C[C@]1(C)O` | 11.31% | - |
| `CNCc1ncon1` | 2.819% | - |
| `Cc1cccc(OCC(O)CNC(C)C)c1` (stereo unspecified) | 10.64% | 13.43% |
| `CC(=O)NCCCN1CCN(c2ccccc2F)CC1` | - | 0.7338% |
| `CN1CCCN(C(=O)c2ccc3ccccc3n2)CC1` | - | 4.081% |
| `CC(C)(C)OCC(O)CNCc1cccs1` (stereo unspecified) | 8.7% | - |
| `COCCOc1cc(C)ccc1CN` | 46.32% | 27.02% |
| `COCCN1CCCN(C(=O)c2cc(C)no2)CC1` | 7.478% | - |
| `COc1ccc(C(=O)CCC(=O)N(C)C)c(Cl)c1` | 1.38% | - |
| `NC1CCCN(c2ccccc2F)C1` (stereo unspecified) | -8.097% | -10.46% |
| `CCCn1cc(CNc2nc(C3CC3)no2)cn1` | 74.4% | 80.48% |
| `Cc1cc(Cl)ccc1C(=O)Nc1ccc(C(N)=O)nc1` | -2.313% | -3.611% |
| `CC(=O)NCc1ccc(-c2ccccc2CO)nc1` | -12.76% | - |
| `CN(C)[C@@H]1CN(C(=O)c2ccccc2)C[C@H]1CO` | -6.155% | - |
| `O=C(NCc1ccncc1)NCC1CCN(C2CC2)C1` (stereo unspecified) | 35.26% | - |
| `COc1ccnc(N2CCN(C(=O)CSC)CC2)n1` | - | 5.831% |
| `O=C(Nc1cncc(Br)c1O)c1csnn1` | - | 4.061% |
| `Cc1cc(CN)on1` | 99.94% | 108% |

Some entries from above, unchanged:

* NC1CCCN(c2ccccc2F)C1 (stereo unspecified) : A: -8.097%; B: -10.46%
* CC1Oc2ccccc2C(=O)N(C)C1=O (stereo unspecified) : A: 7.201%
* NCC(=O)Nc1ccc(Cl)c(F)c1 : A: 73.15%; B: 68.45%
* CC(NS(C)(=O)=O)c1nc(C2CC2)n[nH]1 (stereo unspecified) : A: 9.403%
* CCSc1nnc(-c2ccc[nH]2)o1 : A: 53.82%; B: 55.99%